Pooled drug test results. Numbers come from NIAID ChemDB, via PubChem.

Shared fields: tests on isolated targets; organism: Herpes simplex virus 1; protein: Thymidine kinase

An empty or dashed field is not shown. Inhibition is in % at the dose shown (toxicity tests: loss of growth or viability). ICn: concentration for n% inhibition. Rows are shuffled and stem from different studies.

smiles,dose,strain or isolate,measure,result
Nc1nc2c(ncn2CCCC(CO)CO)c(=O)[nH]1,-,C42,Ki,1.5 µM
C/C=C/c1cn([C@@H]2O[C@H](CO)[C@@H](O)[C@@H]2O)c(=O)[nH]c1=O,10 µM,91075,inhibition,<0%
C[C@@H](O)Cn1cnc2c(=O)[nH]cnc21,-,-,Ki,3700 µM
O=c1[nH]c(=O)n([C@@H]2O[C@H](CO)[C@@H](O)[C@@H]2F)cc1/C=C/Cl,200 µM,F,inhibition,58.6%
C[C@@H](O)Cn1cnc2c(N)ncnc21,-,-,Ki,5300 µM
COC(=O)C[C@@H](SCCO)n1cnc2c(Cl)nc(N)nc21,-,-,Ki,477 µM
Nc1nc2c(ncn2C/C=C\CO)c(=O)[nH]1,-,C42,Ki,7 µM
Cc1cn([C@@H]2O[C@H](CO)[C@@H](O)[C@@H]2F)c(=O)nc1N,200 µM,F,inhibition,18.5%
O=c1[nH]c(=O)n([C@@H]2O[C@H](CO)[C@@H](O)[C@@H]2O)cc1/C=C/Br,5 µM,91075,inhibition,<0%
C[C@@H](O)Cn1cnc2c(=O)[nH]c(N)nc21,-,-,Ki,900 µM
Nc1nc(=O)n([C@@H]2O[C@H](CO)[C@@H](O)[C@@H]2F)cc1/C=C/C(=O)O,200 µM,F,inhibition,4.3%
Cc1cn(C(CCO)OCCO)c(=O)[nH]c1=O,-,-,Ki,219 µM
Nc1nc2c(ncn2CC[C@@H](O)CO)c(=O)[nH]1,-,-,Ki,1.47 µM
O=c1[nH]c(=O)n([C@@H]2O[C@H](CO)[C@@H](O)[C@@H]2F)cc1/C=C/Br,200 µM,F,inhibition,73%
C#C[C@H]1O[C@@H](n2cc(C)c(=O)[nH]c2=O)C[C@@H]1O,-,TR7,IC50,2 µM
C=Cc1cn([C@@H]2O[C@H](CO)[C@@H](O)[C@@H]2F)c(=O)nc1N,200 µM,F,inhibition,47.4%
Cc1cn(C(CCO)SCCO)c(=O)[nH]c1=O,-,-,Ki,256 µM
C[C@@H](O)Cn1cnc2c(=S)nc[nH]c21,-,-,Ki,1300 µM
C/C=C/c1cn([C@H]2C[C@H](O)[C@@H](CO)O2)c(=O)[nH]c1=O,10 µM,91075,inhibition,5%
O=c1[nH]c(=O)n([C@@H]2O[C@H](CO)[C@@H](O)[C@@H]2F)cc1/C=C/I,200 µM,F,inhibition,64.2%

2 of the rows above, restated:

{"smiles": "Cc1cn(C(CCO)OCCO)c(=O)[nH]c1=O", "measure": "Ki", "result": "219 µM"}
{"smiles": "C[C@@H](O)Cn1cnc2c(=S)nc[nH]c21", "measure": "Ki", "result": "1300 µM"}